# Reference: patent US8790898B2 (priority 2008, dated 2014)
# Legend:
# primary HIV-1 isolate = settings: sera 4 weeks after the third immunization, 200- and 400-fold dilution
# HIV-1 BZ 167 = settings: pooled mouse sera of each group
# [1] = test system: CBD1 (C18K) and the Tet peptide; test: Immunization of macaques and ELISA of immune sera; type: in vivo, cynomolgus macaques (Macaca fascicularis); settings: macaques, before this immunization; dilution giving OD ≧0.1
# [2] = test system: CBD1 peptide and CBD1- and CBM-based peptides; test: Immunization of mice and ELISA of immune sera; type: in vivo, BALB/c mice; settings: groups of 6 mice, s.c., CFA, ten days after 5th immunization; OD450 ± s.d. at 16,000-fold dilution
substance,measurement,setting,value
AQYIKANSKFIGITELKKCKSLEQIWNNMTWMQWDK,macaques whose immune sera manifested HIV-1 neutralizing activity,primary HIV-1 isolate,one out of the three
same,% inhibition of HIV-1 at 200-fold dilution,"HIV-1 BZ 167; HIV-1 BZ 167, p24 at 5 days",30%
same,Neutralizing activity ID50,"HIV-1 BZ 167; HIV-1 BZ 167, p24 at 5 days post infection",100-fold
same,Tet-ELISA titer: Before,[1],<200
same,ELISA titer against C17K,[2],0.58 ± 0.46
